This passage reports Therapeutic index and TI results from patent US20100009970A1, “COMPOSITIONS AND METHODS FOR TREATMENT OF VIRAL DISEASES” (Combinatorx (Singapore) Pte. Ltd., priority 2008, published 2010).

This data set deals with Huh7 cells expressing a subgenomic RNA replicon of Con1 (genotype 1b) sequence origin. As to conditions: ratio CC50 / IC50.

“And” between values parts separate entries of the source, which are not always exact repeats. Identical values can stand only once. Counter-ions that a name gives are not always drawn.

As to `COC1CC[C@@H](c2ccc(Cl)c(Cl)c2)c2ccccc21` (stereo partly drawn) [Methoxy 4S-Sertraline], the Therapeutic index is >2.21 and >1.89. For the molecule `CN[C@H]1CC[C@@H](c2ccc(Cl)c(Cl)c2)c2ccc(CN)cc21` [Sertraline A-Ring Methanamine, (1S,4S)-7-(aminomethyl)-4-(3,4-dichlorophenyl)-N-methyl-1,2,3,4-tetrahydronaphthalen-1-amine], the Therapeutic index amounted to 2.32. As to `CN[C@H]1CC[C@@H](c2ccc(Cl)c(Cl)c2)c2ccc(S(=O)(=O)NCCO)cc21` [Sertraline Sulfonamide Ethanol, (5S,8S)-5-(3,4-dichlorophenyl)-N-(2-hydroxyethyl)-8-(methylamino)-5,6,7,8-tetrahydronaphthalene-2-sulfonamide], the TI was determined as 1.69 and the Therapeutic index worked out at 1.69.

Regarding `CNC1CCC(c2cccs2)c2ccccc21` (stereo not drawn) [Sertraline B-ring 2-Thiophene], the Therapeutic index is on record as 1.69.

Take `CN(C)[C@H]1CC[C@@H](c2ccc(Cl)c(Cl)c2)c2ccc(NC(=O)c3ccccc3)cc21` [N-((5S,8S)-5-(3,4-dichlorophenyl)-8-(dimethylamino)-5,6,7,8-tetrahydronaphthalen-2-yl)benzamide]: the Therapeutic index was determined as 1.33. Same read-out and setting: for `CC(=O)NCc1ccc2c(c1)[C@@H](N(C)C)CC[C@H]2c1ccc(Cl)c(Cl)c1` [N-(((5S,8S)-5-(3,4-dichlorophenyl)-8-(dimethylamino)-5,6,7,8-tetrahydronaphthalen-2-yl)methyl)acetamide] the value was 4.28. Turning to `CNCc1cc(S(N)(=O)=O)ccc1Oc1ccc(SC)c(C)c1` [Compound 48, 4-(3-methyl-4-(methylthio)phenoxy)-3-((methylamino)methyl)benzenesulfonamide], the TI is reported as 16.98 and the Therapeutic index is 16.98. Consider `O=C1CC[C@@H](c2ccc(Cl)c(Cl)c2)c2ccccc21` [4S-Sertraline Ketone, (S)-4-(3,4-dichlorophenyl)-3,4-dihydronaphthalen-1(2H)-one], for which the Therapeutic index was greater than 1.54. Consider `CN(C)[C@H]1CC[C@@H](c2ccc(Cl)c(Cl)c2)c2ccccc21` [N,N-Dimethyl Sertraline, (1S,4S)-4-(3,4-dichlorophenyl)-N,N-dimethyl-1,2,3,4-tetrahydronaphthalen-1-amine], for which the TI is on record as 13.83 and the Therapeutic index is 10.6. For `CSc1ccc(Oc2ccc(S(=O)(=O)Nc3ccccc3)cc2CN(C)C)cc1C` [Compound 49, 3-((dimethylamino)methyl)-4-(3-methyl-4-(methylthio)phenoxy)-N-phenylbenzenesulfonamide], the TI was 1.65. For `CNS(=O)(=O)c1ccc(Oc2ccc(SC)c(C)c2)c(CN(C)C)c1` [Compound 6, 3-((dimethylamino)methyl)-N-methyl-4-(3-methyl-4-(methylthio)phenoxy)benzenesulfonamide], the TI was found to be 7.8.

As to `CN[C@H]1CC[C@@H](c2ccc(Cl)c(Cl)c2)c2ccc(C(=O)Nc3ccccc3)cc21` [Sertraline A-Ring Benzamide, (5S,8S)-5-(3,4-dichlorophenyl)-8-(methylamino)-N-phenyl-5,6,7,8-tetrahydronaphthalene-2-carboxamide], the Therapeutic index is 1.42. As for `CNCc1cc(Br)ccc1Oc1cccc(OC)c1` [Compound 37, (5-bromo-2-(3-methoxyphenoxy)phenyl)-N-methylmethanamine], the TI is 1.69. For the molecule `CN[C@H]1CC[C@@H](c2ccc(Cl)c(Cl)c2)c2ccc(N)cc21` [Sertraline Aniline, (1S,4S)-4-(3,4-dichlorophenyl)-N1-methyl-1,2,3,4-tetrahydronaphthalene-1,7-diamine], the TI was 1.45 and the Therapeutic index was determined as 1.45. For the molecule `CSc1ccc(Oc2ccc(Br)cc2CN(C)C)cc1C` [Compound 9, (5-bromo-2-(3-methyl-4-(methylthio)phenoxy)phenyl)-N,N-dimethylmethanamine], the TI is reported as 3.44.

Regarding `CN[C@H]1CC[C@@H](c2ccc(Cl)c(Cl)c2)c2ccc(NC(C)=O)cc21` [Sertraline A-Ring Reverse Carboxamide, N-((5S,8S)-5-(3,4-dichlorophenyl)-8-(methylamino)-5,6,7,8-tetrahydronaphthalen-2-yl)acetamide], the Therapeutic index was 13.14 and 12.55. As to `CCCCS(=O)(=O)Nc1ccc2c(c1)[C@@H](NC)CC[C@H]2c1ccc(Cl)c(Cl)c1` [N-((5S,8S)-5-(3,4-dichlorophenyl)-8-(methylamino)-5,6,7,8-tetrahydronaphthalen-2-yl)butane-1-sulfonamide], the Therapeutic index came to 0.6.

As to `COc1ccc(Oc2ccc(Br)cc2CN(C)C)cc1` [Compound 42, (5-bromo-2-(4-methoxyphenoxy)phenyl)-N,N-dimethylmethanamine], the TI is given as greater than 1.63. For the molecule `CNC1CCC(c2ccc(C(F)(F)F)cc2)c2ccccc21` (stereo not drawn) [Sertraline B-Ring para-Trifluoromethane, N-methyl-4-(4-(trifluoromethyl)phenyl)-1,2,3,4-tetrahydronaphthalen-1-amine], the TI stood at 1.06 and the Therapeutic index is 1.06. Consider `CN[C@H]1CC[C@@H](c2ccc(Cl)c(Cl)c2)c2ccc(C#N)cc21` [Sertraline Nitrile, (5S,8S)-5-(3,4-dichlorophenyl)-8-(methylamino)-5,6,7,8-tetrahydronaphthalene-2-carbonitrile], for which the TI is 3.08 and the Therapeutic index is recorded as 3.08. As for `CNCc1ccccc1Oc1ccc(Br)cc1` [Compound 32], the TI is recorded as greater than 1.60. The same measure, in the same setting: for `CNCc1cc(Br)ccc1Oc1ccc(SC)cc1` [Compound 34, (5-bromo-2-(4-(methylthio)phenoxy)phenyl)-N-methylmethanamine] the value was 1.44.

Turning to `CN[C@H]1CC[C@@H](c2ccc(Cl)c(Cl)c2)c2ccc([N+](=O)[O-])cc21` [Nitro Sertraline, (1S,4S)-4-(3,4-dichlorophenyl)-N-methyl-7-nitro-1,2,3,4-tetrahydronaphthalen-1-amine], the TI turned out to be 1.24 and the Therapeutic index is given as 1.24. `CNCc1cc(Br)ccc1Oc1ccc(SC)c(C)c1` [Compound 31, (5-bromo-2-(3-methyl-4-(methylthio)phenoxy)phenyl)-N-methylmethanamine]: the TI was found to be 1.8. Take `CN[C@H]1CC[C@@H](c2ccc(Cl)c(Cl)c2)c2ccc(I)cc21` [Sertraline Iodide, (1S,4S)-4-(3,4-dichlorophenyl)-7-iodo-N-methyl-1,2,3,4-tetrahydronaphthalen-1-amine]: the TI is 1.34 and the Therapeutic index is listed as 1.34.

On to `CN[C@H]1CC[C@@H](c2ccc(Cl)c(Cl)c2)c2ccc(NC(=O)C3CCCC3)cc21` [N-((5S,8S)-5-(3,4-dichlorophenyl)-8-(methylamino)-5,6,7,8-tetrahydronaphthalen-2-yl)cyclopentanecarboxamide], for which the Therapeutic index is reported as 1.74. For `CC(C)C1CCC(c2ccc(Cl)c(Cl)c2)c2ccccc21` (stereo not drawn) [Isopropyl Sertraline, 1-(3,4-dichlorophenyl)-4-isopropyl-1,2,3,4-tetrahydronaphthalene], the Therapeutic index is greater than 5.40. Still for that read-out and setting: for `CN[C@H]1CC[C@@H](c2ccc(Cl)c(Cl)c2)c2ccc(N(C)C)cc21` [Sertraline A-Ring N,N-Dimethylamine, (1S,4S)-4-(3,4-dichlorophenyl)-N1,N7,N7-trimethyl-1,2,3,4-tetrahydronaphthalene-1,7-diamine] the value was 1.76 and 1.77. Turning to `CSc1ccc(Oc2ccc(C#N)cc2CN(C)C)cc1C` [Compound 7, 3-((dimethylamino)methyl)-4-(3-methyl-4-(methylthio)phenoxy)benzonitrile], the TI is greater than 7.8. Consider `CN(C1CC1)[C@H]1CC[C@@H](c2ccc(Cl)c(Cl)c2)c2ccccc21` [N-Cyclopropyl Sertraline, (1S,4S)—N-cyclopropyl-4-(3,4-dichlorophenyl)-N-methyl-1,2,3,4-tetrahydronaphthalen-1-amine], for which the Therapeutic index is given as greater than 3.4. Take `CNCc1ccccc1Oc1ccc(SC)c(C)c1` [Compound 30, N-methyl-1-(2-(3-methyl-4-(methylthio)phenoxy)phenyl)methanamine]: the TI was found to be 2.

Regarding `CNCc1ccccc1Oc1ccc(SC)cc1` [Compound 33, N-methyl(2-(4-(methylthio)phenoxy)phenyl)methanamine], the TI is listed as greater than 1.65. Same read-out and setting: the same measure for `CSc1ccc(Oc2ccc([N+](=O)[O-])cc2CN(C)C)cc1C` [Compound 54, N,N-dimethyl-1-(2-(3-methyl-4-(methylthio)phenoxy)-5-nitrophenyl)methanamine]: greater than 8.1. Regarding `CN[C@H]1CC[C@@H](c2ccc(Cl)c(Cl)c2)c2ccc(S(=O)(=O)NC)cc21` [Sertraline Sulfonamide, (5S,8S)-5-(3,4-dichlorophenyl)-N-methyl-8-(methylamino)-5,6,7,8-tetrahydronaphthalene-2-sulfonamide], the TI amounted to 1.9 and the Therapeutic index is 1.9.

For `CN[C@H]1CC[C@@H](c2ccc(Cl)c(Cl)c2)c2ccccc21` [Sertraline HCL, Sertraline HCl, reference compound], the TI came to 2.55. `COC1CC[C@@H](c2ccc(Cl)c(Cl)c2)c2ccccc21` (single isomer, unassigned) [Methoxy 4S-Sertraline-P1]: the Therapeutic index is on record as greater than 2.2. Regarding `CCCCC(=O)Nc1ccc2c(c1)[C@@H](NC)CC[C@H]2c1ccc(Cl)c(Cl)c1` [Sertraline A-Ring Reverse Pentanamide, N-((5S,8S)-5-(3,4-dichlorophenyl)-8-(methylamino)-5,6,7,8-tetrahydronaphthalen-2-yl)pentanamide], the Therapeutic index was 1.18 and 1.17. In the case of `N[C@@H]1CC[C@H](c2ccc(Cl)c(Cl)c2)c2ccccc21` [(1R,4R)-Desmethyl Sertraline, (1R,4R)-4-(3,4-dichlorophenyl)-1,2,3,4-tetrahydronaphthalen-1-amine], the TI is 0.93. Consider `CSc1ccc(Oc2ccccc2CN(C)C)cc1C` [Compound 8, N,N-dimethyl-1-(2-(3-methyl-4-(methylthio)phenoxy)phenyl)methanamine], for which the TI came to 2.95.
